Results of unrelated studies side by side (data: NIAID ChemDB).

All rows: cytotoxicity tests; endpoint: CC50

Neighbouring rows are from separate reports.

| compound | cell line | method | result |
|---|---|---|---|
| Cc1cc(NS(=O)(=O)c2ccc(NC(=S)Nc3ccc4c(c3)C(=O)OC4)cc2)no1 | CEM174 | MTT | >100 µM |
| CNC(=O)c1ccc(-n2c(-n3nc(C)cc3C)nc3c(c2=O)C[C@@H](C)N(C(=O)c2ccc(Br)c(C(F)(F)F)c2)C3)cc1N | HepG2.117 | luminescence | >0.5 µM |
| Cc1cc(NS(=O)(=O)c2ccc(NC(=S)Nc3ccccn3)cc2)no1 | CEM174 | MTT | >100 µM |
| CC(C)C[C@@H]1NC(=O)[C@H](Cc2c[nH]c3ccccc23)NC(=O)[C@@H](CCCN)NC(=O)[C@H](C)NC(=O)[C@H](C(C)C)NC(=O)[C@@H](CC(C)C)NC1=O | Hep2G | luminescence | >100 µM |
| O=C(NCCc1ccc2c(n1)NCCC2)Nc1ccc(Oc2ccccc2)cc1 | PBMC |  | 17.3 µM |
| CCCCNc1cccc2c(-c3ccnc(NCCCO)n3)c(-c3ccc(F)cc3)nn12 | VERO 76 |  | >19 µM |
| NCc1ccc(-c2cccc(Cc3cc(=O)n(O)c4ncccc34)c2)cc1 | HeLa |  | <100 µM |
| CCC(C)[C@@H]1NC(=O)[C@@H](CC(C)C)NC(=O)[C@H](CC(C)C)NC(=O)[C@H](Cc2c[nH]c3ccccc23)NC(=O)CNC(=O)[C@H](CC(N)=O)NC1=O | Lung carcinoma cells | MTT | >30 µM |
| CCCCNc1nccc(-c2c(-c3ccc(F)cc3)nn3c(NCCN4CCOCC4)cccc23)n1 | VERO 76 |  | 12 µM |
| Nc1nc(OC[C@H]2CC[C@@H](COCc3ccccc3)O2)c2[nH]cnc2n1 | CAKI-1 |  | 184 µM |
| O=c1c2ccc(-c3ccccc3)cc2c2cccnc2n1O | HeLa |  | <100 µM |
| O=C(NCCCCc1ccc2c(n1)NCCC2)Nc1cccc(F)c1 | PBMC |  | 50 µM |
| COC(=O)c1cnc2c(c1)c(O)c(C(=O)NCc1ccccc1)c(=O)n2O | HeLa |  | <100 µM |
| c1ccc(COC[C@@H]2CC[C@H](COc3ncnc4nc[nH]c34)O2)cc1 | PC-3 |  | 84 µM |
| Cc1cc(C)n(-c2nc3c(c(=O)n2-c2ccc(-c4cnn(C)c4)cc2)C[C@@H](C)N(C(=O)c2ccc(Br)c(C(F)(F)F)c2)C3)n1 | HepG2.117 | luminescence | >0.5 µM |
| CC1COc2c(N3CCN(C(c4ccccc4)c4ccc(Cl)cc4)CC3)c(F)c([N+](=O)[O-])c3c(=O)c(C(=O)O)cn1c23 | Mammalian Vero cells | MTT | 105 µM |
| CC(C)=CCC/C(C)=C/[C@H]1C(=O)C(C)=C[C@H]1O | HOG.R5 |  | 74.8 µM |
| CC[C@@H](C)[C@@H]1NC(=O)[C@H]([C@H](C)CC)NC(=O)[C@@H](CC(C)C)NC(=O)[C@H](CC(C)C)NC(=O)[C@H](Cc2c[nH]c3ccccc23)NC(=O)[C@@H](CCCN)NC1=O | Hep2G | luminescence | >100 µM |
| C[C@H]1COc2c(N3CCC(n4c(=O)[nH]c5cc(Cl)ccc54)CC3)c(F)cc3c(=O)c(C(=O)O)cn1c23 | Mammalian Vero cells | MTT | >122 µM |
| Nc1cc(OC[C@H]2CC[C@@H](COCc3ccccc3)O2)nc(N)n1 | PC-3 |  | 130 µM |
| COc1cc2c(cc1OC)CN(c1c(F)cc3c(=O)c(C(=O)O)cn4c3c1OCC4C)CC2 | Mammalian Vero cells | MTT | >138 µM |
| CC(C)C[C@@H]1NC(=O)[C@H](Cc2c[nH]c3ccccc23)NC(=O)[C@@H](CCCN)NC(=O)C(CC(N)=O)N(C)C(=O)[C@H](C(C)C)NC(=O)[C@@H](CC(C)C)N(C)C1=O | Hep2G | luminescence | >100 µM |
| CC(C)C[C@@H]1NC(=O)[C@H](Cc2c[nH]c3ccccc23)NC(=O)[C@@H](CCCCN)NC(=O)[C@H](CC(=O)O)NC(=O)[C@H](C(C)C)NC(=O)[C@@H](CC(C)C)NC1=O | Lung carcinoma cells | MTT | >30 µM |
| C/C(=N\NC(=O)c1ccc(Cl)cc1)c1cccc(/C(C)=N/NC(=O)c2ccc(Cl)cc2)n1 | HCT116 | MTT | >100 µM |
| CC[C@@H]1/C=C(\C)C[C@H](C)C[C@H](OC)[C@H]2O[C@@](O)(C(=O)C(=O)N3CCCC[C@H]3C(=O)O[C@H](/C(C)=C/[C@H]3CC[C@H](O)[C@H](OC)C3)[C@H](C)[C@@H](O)CC1=O)[C@H](C)C[C@@H]2OC | MOLT-3 |  | 20 µg/mL |
| O=C(NCCc1ccc2c(n1)NCCC2)NCc1cncnc1 | PBMC |  | 50 µM |
| NC1=NC2C(C=CN2CC(CO)CCO)C(=O)N1 | OMK | cell count | >200 µM |
| CC(C)C[C@@H]1NC(=O)[C@H](Cc2c[nH]c3ccccc23)NC(=O)[C@@H](CCCCN)NC(=O)[C@H](CC(N)=O)NC(=O)[C@H](CC(C)C)NC(=O)[C@@H](CC(C)C)NC1=O | Colorectal carcinoma | MTT | >30 µM |
| Fc1ccc(-c2nn3c(N4CCCC4)cccc3c2-c2ccnc(NC3CCCC3)n2)cc1 | VERO 76 |  | >40 µM |
| Cc1cc(C)n(-c2nc3c(c(=O)n2-c2ccc(OC[C@H](O)CO)cc2)C[C@@H](C)N(C(=O)c2ccc(Br)c(C(F)(F)F)c2)C3)n1 | HepG2.117 | luminescence | >0.5 µM |
| Cc1cccc(CNC(=O)NCCc2cccc(-n3ccnc3)n2)c1 | PBMC |  | 50 µM |
| Cc1cc(NS(=O)(=O)c2ccc(NC(=S)Nc3ccc(C#N)cc3)cc2)no1 | CEM174 | MTT | >100 µM |
| CN(C)CC[C@H](Nc1cc(=O)n(O)c2ncccc12)c1ccccc1 | HeLa |  | 0.24 µM |
| CC(C)[C@@H]1NC(=O)[C@@H](C(C)C)OC(=O)[C@H](C(C)C)N(C)C(=O)[C@@H](C(C)C)OC(=O)[C@H](C(C)C)N(C)C(=O)[C@@H](C(C)C)OC1=O | BC-cells | absorbance | 6.36 µM |
| O=C(Nc1ccc(Cl)c(Cl)c1)Nc1ccc2c(c1)CCC2 | PBMC |  | 50 µM |
| CC1COc2c(N3CCN(Cc4ccc5c(c4)OCO5)CC3)c(F)c([N+](=O)[O-])c3c(=O)c(C(=O)O)cn1c23 | Mammalian Vero cells | MTT | 119 µM |
| Cc1cc(C)n(-c2nc3c(c(=O)n2-c2cc(F)c4c(c2)ncn4C)C[C@@H](C)N(C(=O)c2ccc(Br)c(C(F)(F)F)c2)C3)n1 | HepG2.117 | luminescence | >0.5 µM |
| Cn1ccnc1CN1CC[C@@H](N2CC(=O)N3[C@H](c4ccc5c(c4)OCO5)c4[nH]c5ccccc5c4C[C@@H]3C2=O)C1 | MRC-5 SV2 | resazurin | 40 µM |
| CC(C)C[C@@H]1NC(=O)[C@H](Cc2c[nH]c3ccccc23)NC(=O)[C@@H](C(C)(C)C)NC(=O)[C@H](CCCCN)NC(=O)[C@H](C(C)C)NC(=O)[C@@H](CC(C)C)NC1=O | Lung carcinoma cells | MTT | >30 µM |
| CCCCNc1nccc(-c2c(-c3ccc(F)cc3)nn3c(N(C)C)cccc23)n1 | VERO 76 |  | >40 µM |
| CC(C)C[C@@H]1NC(=O)[C@H](Cc2c[nH]c3ccccc23)NC(=O)[C@@H](C)NC(=O)[C@H](CCCCN)NC(=O)[C@H](C(C)C)NC(=O)[C@@H](CC(C)C)NC1=O | Lung carcinoma cells | MTT | >30 µM |
| COc1cccc(NC(=S)Nc2ccc(S(=O)(=O)Nc3cc(C)on3)cc2)c1 | CEM174 | MTT | >100 µM |
| O=c1[nH]c(=O)n([C@H]2C[C@H](O)[C@@H](CO)O2)cc1/C=C/Cl | NIH 3T3 | cell count | >70 µM |
| CC(C)=CCC/C(C)=C\[C@H]1C(=O)C(C)=C[C@@H]1O | HOG.R5 |  | 24.4 µM |
| O=c1cc(NCCN2CCOCC2)c2cccnc2n1O | HeLa |  | <100 µM |
| O=C1[C@H]2Cc3c([nH]c4ccccc34)[C@@H](c3ccc4c(c3)OCO4)N2C(=O)CN1[C@@H]1CCN(CC2CCCC2)C1 | MRC-5 SV2 | resazurin | 5.6 µM |
| CS[C@@]1(Cc2ccccc2)NC(=O)[C@](O)(Cc2ccccc2)NC1=O | 293T | luminescence | >100 µM |
| CC1COc2c(N3CCn4cc(C(=O)O)nc4C3)c(F)c([N+](=O)[O-])c3c(=O)c(C(=O)O)cn1c23 | Mammalian Vero cells | MTT | 132 µM |
| CC(C)C[C@@H]1NC(=O)[C@H](Cc2c[nH]c3ccccc23)NC(=O)[C@@H](CCCCN)NC(=O)[C@H](CCC(N)=O)NC(=O)[C@H](CC(C)C)NC(=O)[C@@H](CC(C)C)NC1=O | Lung carcinoma cells | MTT | >30 µM |
| CC1CN(c2c(F)c([N+](=O)[O-])c3c(=O)c(C(=O)O)cn4c3c2OCC4C)CC(C)O1 | Mammalian Vero cells | MTT | 148 µM |
| CCc1cn([C@H]2C[C@H](O)[C@@H](CO)O2)c(=O)[nH]c1=O | RF | cell count | 602 µM |
| CC(C)(C)OC(=O)NCCN1CC[C@@H](N2CC(=O)N3[C@H](c4ccc5c(c4)OCO5)c4[nH]c5ccccc5c4C[C@@H]3C2=O)C1 | MRC-5 SV2 | resazurin | 34 µM |
| O=c1[nH]c(=O)n([C@H]2C[C@H](O)[C@@H](CO)O2)cc1/C=C/Br | RF | cell count | 411 µM |
| CC(C)CC1C(=O)N[C@H](CC(C)C)C(=O)N[C@@H](C(C)C)C(=O)N(C)C(CC(N)=O)C(=O)N[C@H](CCCN)C(=O)N[C@@H](Cc2c[nH]c3ccccc23)C(=O)N1C | Hep2G | luminescence | >100 µM |
| O=C(NCCCc1ccc2c(n1)NCCC2)Nc1ccc(F)c(C(F)(F)F)c1 | PBMC |  | 17.6 µM |
| CC(C)=CCC/C(C)=C/[C@H]1C(=O)C(C)=C[C@@H]1O | HOG.R5 |  | 56.2 µM |
| Nc1nccc(OC[C@@H]2O[C@H](CO)[C@@H](O)[C@H]2O)n1 | PC-3 |  | >250 µM |
| O=C(NCCc1cccc(-n2ccnc2)n1)Nc1ccc(OC(F)(F)F)cc1 | PBMC |  | 10.5 µM |
| Nc1cc(OC[C@H]2CC[C@@H](CO)O2)nc(N)n1 | CAKI-1 |  | >250 µM |
| COC(=O)c1ccc(NC(=S)Nc2ccc(S(=O)(=O)Nc3cc(C)on3)cc2)cc1 | CEM174 | MTT | >100 µM |
| CO[C@@]1(Cc2ccccc2)NC(=O)[C@](O)(Cc2ccccc2)NC1=O | 293T | luminescence | >100 µM |
| O=c1c(-c2ccccc2)c(O)c2cc(Cc3ccccc3)cnc2n1O | HeLa |  | <100 µM |
| Nc1ccnc(OC[C@H]2CC[C@@H](CO)O2)n1 | CAKI-1 |  | 202 µM |
| COc1ccc(CN2CC[C@@H](N3CC(=O)N4[C@H](c5ccc6c(c5)OCO6)c5[nH]c6ccccc6c5C[C@@H]4C3=O)C2)cc1 | MRC-5 SV2 cells | resazurin | 8 µM |
| Nc1nc2c(ncn2CCC(CO)CO)c(=O)[nH]1 | P3HR-1 | cell count | >700 µM |
| O=c1cc(O)c2c(-c3cccc(O)c3)ccnc2n1O | HeLa |  | <100 µM |
| Cc1cc(C)n(-c2nc3c(c(=O)n2-c2ccc4c(c2)ncn4CC(F)F)C[C@@H](C)N(C(=O)c2ccc(Br)c(C(F)(F)F)c2)C3)n1 | HepG2.117 | luminescence | >0.5 µM |
| CS[C@@]1(Cc2ccccc2)NC(=O)[C@@](Cc2ccccc2O)(SC)NC1=O | 293T | luminescence | >100 µM |
| CCCCNc1cccc2c(-c3ccnc(NC4CC4)n3)c(-c3ccc(F)cc3)nn12 | VERO 76 |  | 126 µM |
| CCCc1ccc(S(=O)(=O)NCCc2ccc3c(n2)NCCC3)cc1 | PBMC |  | 50 µM |
| Fc1ccc(-c2nn3c(NC4CCCC4)cccc3c2-c2ccnc(NC3CCCC3)n2)cc1 | VERO 76 |  | >160 µM |
| C[C@H]1COc2c(N3CCC4(CC3)OCCO4)c(F)cc3c(=O)c(C(=O)O)cn1c23 | Mammalian Vero cells | MTT | 155 µM |
| CS[C@@]12CC3=CC=C[C@H](O)[C@H]3N1C(=O)[C@@]13C[C@H]4C(=O)C[C@@H](S1)[C@H](O)[C@H]4N3C2=O | 293T | luminescence | >100 µM |
| Nc1nc(N)nc(OC[C@H]2CC[C@@H](CO)O2)n1 | L1210 |  | >250 µM |
| Cc1cc(C)n(-c2nc3c(c(=O)n2-c2ccc(OC[C@@H](O)CO)cc2)C[C@@H](C)N(C(=O)c2ccc(Br)c(C(F)(F)F)c2)C3)n1 | HepG2.117 | luminescence | >0.5 µM |
| CS[C@@]12CC3C(=O)CC[C@H](O)[C@H]3N1C(=O)[C@@]13C[C@@H]4[C@@H]([C@@H](O)[C@@H](C[C@@H]4O)S1)N3C2=O | 293T | luminescence | >100 µM |
| O=C(NCCc1ccc2c(n1)NCCC2)Nc1ccc(F)c(Cl)c1 | PBMC |  | 3.2 µM |
| Cc1cc(NS(=O)(=O)c2ccc(NC(=S)NCc3ccc(F)cc3)cc2)no1 | CEM174 | MTT | >100 µM |
| O=c1cc(N2CCC(Cc3ccccc3)CC2)c2cccnc2n1O | HeLa |  | <100 µM |
| CC(C)C[C@@H]1NC(=O)[C@H](Cc2c[nH]c3ccccc23)NC(=O)[C@@H](CCCCN)NC(=O)[C@H](C)NC(=O)[C@H](C(C)C)NC(=O)[C@@H](CC(C)C)NC1=O | Lung carcinoma cells | MTT | >30 µM |
| C[C@H]1COc2c(N3CCC(n4c(=O)[nH]c5cc(Cl)ccc54)CC3)c(F)c([N+](=O)[O-])c3c(=O)c(C(=O)O)cn1c23 | Mammalian Vero cells | MTT | 112 µM |

CCn: concentration that lowers growth or viability of the cells by n%. An empty or dashed field is not shown.